{"source": "PubChem BioAssay AID504761 (Drosophila RNAi Screening Center, 2011)", "screen": "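Fly genes whose silencing reduces dengue virus type 2 infection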 (primary screen)", "cells": "D.Mel-2 cells from Drosophila", "reagents": "long dsRNA against Drosophila genes", "conditions": "infection with dengue virus type 2; dose and infection time not stated", "detection": "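Cells stained for dengue envelope protein and imaged; percent of infected cells per well on duplicate plates, ranked by infection, with stained nuclei counted for cell number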", "direction": "infection score: higher = more virus-infected cells; cell count: higher = more cells in the well", "call rule": "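Very low infection ranking in both replicate wells (chance probability at most 0.065), then a retest showing infection dropped 1.5-fold or more at p below 0.05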", "meaning of the calls": "active = confirmed: knock-down lowers infection; inactive = not picked or not confirmed", "note": "In all, the deposit lists about 22,000 reagents; this is an unselected part of those that have a named target and a result. Of all reagents, 116 (0.52%) got an active call. 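Calls depend on retest data that are not deposited; infection was ranked per plate without normalising between plates; the unit of the infection score is not given.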 Raw values vary from plate to plate and are shown uncorrected. Further read-outs or replicates are left out here. Not stated in the record: the amount of reagent, the time to read-out."}
{"Gene": "CG6304", "amplicon": "DRSC02948", "infection score, replicate 1": 4.79, "cell count, replicate 1": 6101, "activity call": "inactive"}
{"Gene": "CG6304", "amplicon": "DRSC27729", "infection score, replicate 1": 6.44, "cell count, replicate 1": 6153, "activity call": "inactive"}
{"Gene": "CG32488", "amplicon": "DRSC08549", "infection score, replicate 1": 2.06, "cell count, replicate 1": 6459, "activity call": "inactive"}
{"Gene": "CG32488", "amplicon": "DRSC21537", "infection score, replicate 1": 5.93, "cell count, replicate 1": 6275, "activity call": "inactive"}
{"Gene": "CG15446", "amplicon": "DRSC20518", "infection score, replicate 1": 6.65, "cell count, replicate 1": 5879, "activity call": "inactive"}
{"Gene": "Cpsf5 (Cleavage and polyadenylation specific factor 5)", "amplicon": "DRSC10374", "infection score, replicate 1": 7.92, "cell count, replicate 1": 6033, "activity call": "inactive"}
{"Gene": "Cpsf5 (Cleavage and polyadenylation specific factor 5)", "amplicon": "DRSC27451", "infection score, replicate 1": 8.87, "cell count, replicate 1": 5679, "activity call": "inactive"}
{"Gene": "CG13251", "amplicon": "DRSC11699", "infection score, replicate 1": 3.75, "cell count, replicate 1": 6584, "activity call": "inactive"}
{"Gene": "CG13251", "amplicon": "DRSC27385", "infection score, replicate 1": 22.5, "cell count, replicate 1": 4665, "activity call": "inactive"}
{"Gene": "TTLL3B (Tubulin tyrosine ligase-like 3B)", "amplicon": "DRSC02133", "infection score, replicate 1": 7.17, "cell count, replicate 1": 5591, "activity call": "inactive"}
{"Gene": "Atxn7 (Ataxin 7)", "amplicon": "DRSC23138", "infection score, replicate 1": 1.61, "cell count, replicate 1": 6895, "activity call": "inactive"}
{"Gene": "Tsf3 (Transferrin 3)", "amplicon": "DRSC06849", "infection score, replicate 1": 9.19, "cell count, replicate 1": 6483, "activity call": "inactive"}
